Here are results for 1 compound from patent US11034742B2, “Peptides with antibiotic potential against Mycobacterium tuberculosis” (LINNANE PHARMA AB, priority 2017, dated 2021).

For this series, the system named is M. tuberculosis H37Rv. Briefly: Murine TB model, TEM of lung sections with gold-labelled peptide. Particulars: three days. It counts as in vivo, BALB/c mice.

Structures are written as SMILES. “Also recorded” adds a separate entry of the source. Positions of bridges follow the written chain, without caps; N, C: chain ends. Residues, ends and D or L forms follow the SMILES beside them.

As for `CC[C@H](C)[C@@H]1NC(=O)[C@H](CO)NC(=O)[C@H](CCCCN)NC(=O)[C@@H]2CSSC[C@@H](C(=O)N[C@@H](Cc3ccc(O)cc3)C(=O)O)NC(=O)[C@H](CCCCN)NC(=O)[C@@H]3CSSC[C@H](NC(=O)[C@H](CCC(N)=O)NC(=O)[C@H]([C@@H](C)CC)NC(=O)[C@H](CC(=O)O)NC(=O)[C@H](CC(=O)O)NC(=O)[C@H](CCC(=O)O)NC(=O)[C@H](CO)NC(=O)[C@H](Cc4c[nH]c5ccccc45)NC(=O)[C@@H]4CCCN4C(=O)CNC(=O)[C@H](CC(N)=O)NC(=O)[C@@H](NC(=O)CNC(=O)[C@H](Cc4ccccc4)NC(=O)CN)CSSC[C@H](NC(=O)[C@H](Cc4ccc(O)cc4)NC(=O)CNC(=O)CNC(=O)[C@H](CCCCN)NC(=O)[C@H](Cc4ccc(O)cc4)NC(=O)CNC(=O)[C@H](CCCCN)NC1=O)C(=O)N[C@@H](C)C(=O)N[C@@H](CCCNC(=N)N)C(=O)NCC(=O)NCC(=O)N[C@@H](Cc1ccccc1)C(=O)N[C@@H](C(C)C)C(=O)N3)C(=O)N[C@@H](Cc1c[nH]cn1)C(=O)N[C@@H](CC(N)=O)C(=O)N[C@@H](Cc1c[nH]cn1)C(=O)N2` [SEQ ID NO: 3] (H-GFGCNGPWSEDDIQCHNHCKSIKGYKGGYCARGGFVCKCY-OH; disulfide 4-30, 15-37, 19-39 (inferred); N-terminus and C-terminus assumed), the “localisation of gold-labelled peptide in lung sections (TEM)” value is “targets M. tuberculosis within macrophages in lung sections from infected mice; also recorded: peptide (arrows) around M. tuberculosis H37Rv (marked b) in lung macrophages”.
